{
  "source": "PubChem BioAssay AID504862",
  "about": "(Sanford-Burnham Center for Chemical Genomics, 2011)",
  "test_system": "diaphorase (Clostridium kluyveri)",
  "test": "diaphorase inhibitors and chemical oxidizers, confirmation, counter-screen for P. falciparum G6PD inhibitor project, biochemical, fluorescence intensity, 10 µM NADPH (AID 504862);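 also: resorufin red fluorescence formed as diaphorase reduces resazurin using NADPH; 0% = DMSO with enzyme and 100% = DMSO without enzyme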",
  "settings": "diaphorase-coupled resazurin reduction, NADPH 10 uM, at 20 µM, hits give high values",
  "note": "The entries are a selection whose mix differs from that of the whole data set. Calls of active or inactive are those of the source.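 The calls were made as follows: active = average inhibition reaching 50% or more with the compound at 20 µM; inactive = the rest.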",
  "data": [
    {"molecule": "CN(C)C(=O)c1cc([N+](=O)[O-])cc2c1-c1c(cc([N+](=O)[O-])cc1[N+](=O)[O-])C2=O", "values": [
      {"measurement": "inhibition", "value": "active: 82.7%"}
    ]}
  ]
}
